The record followed here is ChEMBL document CHEMBL4043104, “Conjugates of salicylaldoximes and peripheral site ligands: Novel efficient nonquaternary reactivators for nerve agent-inhibited acetylcholinesterase” (2017).

Amino acid sequences for entries named in this document (tags omitted). Residues count along the entry.
UniProt P22303, 32-614 limits assumed: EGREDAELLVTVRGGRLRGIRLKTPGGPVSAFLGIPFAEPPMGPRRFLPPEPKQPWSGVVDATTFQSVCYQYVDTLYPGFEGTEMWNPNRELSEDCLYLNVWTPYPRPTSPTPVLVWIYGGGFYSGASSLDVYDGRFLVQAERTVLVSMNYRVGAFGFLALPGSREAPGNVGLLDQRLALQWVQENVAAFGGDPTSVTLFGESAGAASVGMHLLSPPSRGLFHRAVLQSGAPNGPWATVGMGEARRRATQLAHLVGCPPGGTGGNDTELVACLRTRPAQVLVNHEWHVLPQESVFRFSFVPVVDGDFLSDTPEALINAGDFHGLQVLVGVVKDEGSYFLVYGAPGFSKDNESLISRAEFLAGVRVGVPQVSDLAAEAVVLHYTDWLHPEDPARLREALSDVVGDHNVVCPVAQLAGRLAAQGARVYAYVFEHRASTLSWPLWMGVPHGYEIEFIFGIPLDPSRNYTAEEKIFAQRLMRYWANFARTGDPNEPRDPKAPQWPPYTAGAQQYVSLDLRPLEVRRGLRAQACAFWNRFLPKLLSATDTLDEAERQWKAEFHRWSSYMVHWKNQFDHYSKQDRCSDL

The target in this assay is Acetylcholinesterase (Homo sapiens) (UniProt P22303). Description: Reactivation of sarin-induced inhibition of human AChE assessed as reactivation rate constant using acetylthiocholine as substrate preincubated for 30 mins followed by substrate addition measured at 5 to 180 mins by Ellman's method. Background: DTNB colorimetry detects thiols as they appear.

With `COc1cc2c(cc1OC)CN(CC1CCN(Cc3cc(Cl)cc(/C=N/O)c3O)CC1)CC2`, the Kr is 127 ×10⁻³ /min.

Turning to `COc1cc2c(cc1OC)CN(CC1CCN(Cc3cc(Br)cc(/C=N/O)c3O)CC1)CC2`, the Kr is 107 ×10⁻³ /min. As for `COc1cc(/C=N/O)c(O)c(CN2CCC(CN3CCc4cc(OC)c(OC)cc4C3)CC2)c1`, the figure is 91 ×10⁻³ /min; as for `COc1cc2c(cc1OC)CN(CC1CCN(Cc3cc(F)cc(/C=N/O)c3O)CC1)CC2`, 41 ×10⁻³ /min.
